PubChem BioAssay AID504761 | Drosophila RNAi Screening Center, 2011

Screen: 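Genome-wide fly cell screen for genes dengue virus requires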 (primary screen)
Cell system: D.Mel-2 cells from Drosophila
Knock-down reagent: long dsRNA against Drosophila genes
Challenge: infection with dengue virus type 2; dose and infection time not stated
Detection: 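Per well on two replicate plates, imaging gave the percent of cells positive for viral envelope protein, ranked by infection, and a nuclear count of cells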
Scale: infection score: higher = more virus-infected cells; cell count: higher = more cells in the well
Active means: 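Very low infection ranking in both replicate wells (chance probability at most 0.065), then a retest showing infection dropped 1.5-fold or more at p below 0.05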
Meaning of the calls: active = confirmed: knock-down lowers infection; inactive = not picked or not confirmed
The screen tested about 22,000 reagents; shown is a random part of those that have a named target and a result. Of all reagents, 116 (0.52%) are marked active. 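Calls depend on retest data that are not deposited; infection was ranked per plate without normalising between plates; the unit of the infection score is not given.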 Raw values vary from plate to plate and are shown uncorrected. Entries without a mark were called inactive. Reagent sequences are not shown. Not stated in the record: the amount of reagent, the time to read-out.

The opening 4 records, to show the layout:
no.	predicted target	DRSC id	infection score, replicate 1	infection score, replicate 2	cell count, replicate 1	cell count, replicate 2
1	Obp57c (Odorant-binding protein 57c)	DRSC06384	3.23	1.75	6403	6415
2	CG17024 (retired record)	DRSC02562	2.2	2.93	6508	6341
3	CG17059	DRSC06654	14.4	3.94	5691	6973
4	Hecw (Hecw ubiquitin protein ligase)	DRSC18261	4.92	1.74	6339	6481

Main list, from the start:
no.	predicted target	DRSC id	infection score, replicate 1	infection score, replicate 2	cell count, replicate 1	cell count, replicate 2
1	Obp57c (Odorant-binding protein 57c)	DRSC06384	3.23	1.75	6403	6415
2	CG17024 (retired record)	DRSC02562	2.2	2.93	6508	6341
3	CG17059	DRSC06654	14.4	3.94	5691	6973
4	Hecw (Hecw ubiquitin protein ligase)	DRSC18261	4.92	1.74	6339	6481
5	Hecw (Hecw ubiquitin protein ligase)	DRSC18276	20.2	22.5	634	2508
6	Hecw (Hecw ubiquitin protein ligase)	DRSC25872	9.42	4.28	6112	6547
7	CG14185	DRSC10184	2.69	3.39	6941	6315
8	Cyp9b1 (Cytochrome P450 9b1)	DRSC07389	2.12	10.6	5984	6507
9	Cyp9b1 (Cytochrome P450 9b1)	DRSC24745	0.75	0.52	6426	6313
10	CG5245	DRSC15750	7.76	14.9	4921	6140
11	CG5245	DRSC29337		5.38	352	4893
12	asf1 (anti-silencing factor 1)	DRSC11324	3.8	16.9	5309	5257
13	asf1 (anti-silencing factor 1)	DRSC24067	2.84	5.69	5385	5484
14	gek (genghis khan)	DRSC04688	3.34	51.9	5960	2694
15	CG11837	DRSC14397	11.6	3.01	6004	6700
16	Vsx1 (Visual system homeobox 1)	DRSC23004	2.18	5.43	6229	6608
17	Vsx1 (Visual system homeobox 1)	DRSC25808	2.15	2.42	6684	6742
18	flip (flippy)	DRSC12326	8.09	6.85	6354	6030
19	CG6276	DRSC16007	22.1	11.3	4399	5951
20	CG6276	DRSC27870	5.66	25.5	6133	5872
21	peg (pegasus)	DRSC15216	5.66	1.64	5022	7128
22	peg (pegasus)	DRSC26737	8.51	4.12	6701	6359
23	Pdxk (Pyridoxal kinase)	DRSC10419	1.42	2.71	6131	6429
24	Manf (Mesencephalic astrocyte-derived neurotrophic factor)	DRSC14091	30.9	29	5424	6144
25	Noc1 (Nucleolar complex protein 1)	DRSC10921	5.62	1.97	6390	6651
26	ChLD3 (Chitin and LDLR binding deacetylase 3)	DRSC02640	3.24	7.01	6882	2653
27	CG3246	DRSC00584	6.88	5.03	6362	6146
28	Ns3 (Nucleostemin 3)	DRSC18607	1.83	1.99	6610	6750
29	Ns3 (Nucleostemin 3)	DRSC25847	3.73	1.37	6114	5896
30	dpr11 (defective proboscis extension response 11)	DRSC12561	3.53	5.82	6887	6953
31	dpr11 (defective proboscis extension response 11)	DRSC12562	4.28	24.7	6495	6862
32	dpr11 (defective proboscis extension response 11)	DRSC12563	3.3	5.02	7158	7033
33	Mrm2 (Mitochondrial rRNA methyltransferase 2)	DRSC14310	9.71	12.9	3862	6321
34	Mrm2 (Mitochondrial rRNA methyltransferase 2)	DRSC27849	4.42	26.8	951	6013
35	Tfb4 (Transcription factor B4)	DRSC00675	3.22	1.72	6390	6929
36	Tfb4 (Transcription factor B4)	DRSC26946	14.7	4.97	5964	6319
37	sqa (spaghetti-squash activator)	DRSC06693	22.3	21.3	5422	5777
38	sqa (spaghetti-squash activator)	DRSC21635	5.94	6.72	5706	6306
39	Cyp6a8 (Cytochrome P450 6a8)	DRSC07384	15.2	2.68	6211	6379
40	mthl7 (methuselah-like 7)	DRSC10852	2.71	1.29	6045	6596
41	Gga	DRSC18260	2.74	2	6428	6494
42	Gga	DRSC27761	3.02	4.34	5830	6292
43	CG14818	DRSC18548		3.76	389	772
44	CG14818	DRSC29496			390	342
45	CG14464	DRSC07760	3.67	4.67	6212	6381
46	Spc25	DRSC14164	2.61	6	6137	6629
47	CG12426	DRSC14516	10.5	23.7	3926	4576
48	CG9737	DRSC16550	8.6	4.17	5677	6810
49	CG30183	DRSC04450	3.99	7.66	6641	6975
50	CG30183	DRSC04472	7.47	9.97	6586	7159
51	GluRIIB (Glutamate receptor IIB)	DRSC03335	5.27	4.96	6548	6811
52	CG33465	DRSC05587	0.82	2	6446	5702
53	CR31427 (pseudo)	DRSC22675	5.8	1.07	6688	6445
54	CR31427 (pseudo)	DRSC26472	6.5	1.32	5920	5286
55	CG4424	DRSC15576	1.38	3.7	6894	6293
56	CG42686 (retired record)	DRSC15248	6.72	4.9	5491	5670
57	CG42686 (retired record)	DRSC22995	4.51	9.23	6070	6065
58	CG42686 (retired record)	DRSC25798	5.62	2.82	6321	6888
59	CG42686 (retired record)	DRSC29345	2.87	4.07	906	5597
